Compound potency records, mixed from different reports. Data source: NIAID ChemDB in PubChem.

Shared fields: growth or infection tests; agent: Mycobacterium tuberculosis

MIC bound: limit read from a one-dose screen. An empty or dashed field is not shown. a–b is a range or a potency band. ECn is the concentration giving n% inhibition of infection, replication or growth. Inhibition is in % at the dose shown (toxicity tests: loss of growth or viability). Lines come from different laboratories, so protocols vary. MIC50, MIC90 and the like: level of inhibition, or share of isolates inhibited.

SMILES	read by	strain or isolate	measure	cells	setting	tested at	value
N/C(=N\N=C\c1cc(Br)ccc1O)SCc1cccc(Cl)c1	broth dilution	H37Rv	MIC		21 d		32 µM
Cc1onc(-c2c(F)cccc2F)c1C(=O)N1CCN(c2cc3c(cc2F)c(=O)c(C(=O)O)c2n3CS2)CC1	agar	H37Rv	MIC				11.23 µM
O=C(Oc1ccc(Cl)cc1C(=O)Nc1ccc(C(F)(F)F)cc1)c1ccccc1	broth dilution	7357/1998	MIC		21 d		0.5 µM
CC(=O)C1=C(O)c2c(C)cc(C)nc2S(=O)(=O)N1		H37Rv	inhibition			12.5 µg/mL	33%
O=C(N/N=C/c1ccco1)c1cccnc1			MIC				10 µg/mL
C=C1C(=C)C2OC1c1cc3c(cc12)C(=O)c1ccccc1C3=O	BACTEC	H37Rv	MIC bound				>12.5 µg/mL
COc1c(N2CCNC(C)C2)c(F)cc2c(=O)c(C(=O)O)cn(C3CC3)c12		H37Rv	EC50				0.072 µg/mL
CO[C@H]1/C=C/O[C@@]2(C)Oc3c(C)c(NCc4ccccc4)c4c(c3C2=O)C(O)C(/C=N/N2CCN(C)CC2)=C(NC(=O)/C(C)=C\C=C\[C@H](C)[C@H](O)[C@@H](C)[C@@H](O)[C@@H](C)[C@H](OC(C)=O)[C@@H]1C)C4=O	resazurin		MIC90				>4.4 µM
O=[N+]([O-])c1ccccc1C1SCc2nc3ccccc3n21	resazurin	H37Rv	inhibition			6.25 µg/mL	1%
O=C(c1ccc([N+](=O)[O-])o1)N1CCc2cc(N3CCN(Cc4ccccc4)CC3)ccc2C1		UT15	MIC				0.012 µg/mL
O=C1OCCN1/N=C/c1ccc([N+](=O)[O-])o1	BACTEC	H37Rv	MIC				≥12.5 µg/mL
N/C(=N\N=C\c1ccccc1O)SCc1ccc(Br)cc1	broth dilution	H37Rv	MIC		21 d		32 µM
Oc1[nH]c2ccc(OC(F)(F)F)cc2c1N=NC(=S)NC1CCCCC1	broth dilution / resazurin	H37Rv	EC90				>100 µg/mL
S=C(S)NN1CCCC1		H37Rv	MIC	VERO			0.8 µg/mL
O=C(NN=C1CCCCC1)c1cccnc1			MIC				10 µg/mL
CO/N=C1/CCN(c2nc(=O)c3cc(C(F)(F)F)cc([N+](=O)[O-])c3s2)CC1N	resazurin	H37Rv	MIC90				0.436 µg/mL
O=C(Oc1ccc(Cl)cc1C(=O)Nc1cccc(Cl)c1)c1ccccc1	broth dilution	331/88 (H37Rv)	MIC		14 d		2 µM
C[N+](C)=c1ccc2nc3c(ccc4ccccc43)oc-2c1.[Cl-]	BACTEC	H37Rv	inhibition			12.5 µg/mL	97%
C=CCNc1c(C)c2c3c4c1C(=O)C(=C(/C=N/N1CCN(C)CC1)C4=O)NC(=O)/C(C)=C\C=C\[C@H](C)[C@H](O)[C@@H](C)[C@@H](O)[C@@H](C)[C@H](OC(C)=O)[C@H](C)[C@@H](OC)/C=C/O[C@@](C)(O2)C3=O	low oxygen		MIC90				>18.6 µM
CCN(CC)c1ccc2nc3c4ccccc4c(=NC(=O)c4ccccc4-c4c5ccc(N(CC)CC)cc5[o+]c5cc(N(CC)CC)ccc45)cc-3oc2c1.[Cl-]		PAS-R	MIC				0.8 µg/mL
Cc1ccc2[nH]c(O)c(N=NC(=S)Nc3ccccc3Br)c2c1	broth dilution / resazurin	H37Rv	EC90				>100 µg/mL
Cc1cc(C)c2c(=O)n(CC(O)CNCC(C)C)sc2n1		H37Rv	MIC				>12.5 µg/mL
COc1cc(Cc2cnc(/N=C3\C(=O)N(CN4CCN(c5ccccc5)CC4)c4ccc(Br)cc43)nc2N)cc(OC)c1OC	BACTEC		inhibition			6.25 µg/mL	51%
Cc1cc2c(cc1C)[n+](=O)c(C(=O)C/C(=N\OCCCc1ccccc1)C(=O)Nc1cc(Cl)ccc1Cl)c(C)n2[O-]	BACTEC	H37Rv	MIC bound				>12.5 µg/mL
CC(=O)Nc1ccc(/C=N/NC(=O)c2cccnc2)cc1			MIC				1 µg/mL
CCON=C1CCN(c2nc(=O)c3cc(C(F)(F)F)cc([N+](=O)[O-])c3s2)CC1	resazurin	H37Rv	MIC90				0.232 µg/mL
N/C(=N\N=C\c1cc(Cl)ccc1O)SCc1ccccc1	broth dilution	H37Rv	MIC		14 d		16 µM
O=C(O)c1c2n(c3cc(N4CCSCC4)c([N+](=O)[O-])cc3c1=O)CS2	agar	H37Rv	MIC				4.12 µM
CN[C@@H]1[C@H](O[C@H]2[C@H](O[C@H]3[C@H](O)[C@@H](O)[C@H](N=C(N)N)[C@@H](O)[C@@H]3N=C(N)N)O[C@@H](C)[C@]2(O)C=O)O[C@@H](CO)[C@H](O)[C@H]1O		N128	MIC				≥512 µg/mL
O=[N+]([O-])c1ccc(NC(=S)N=Nc2c(O)n(CN3CCOCC3)c3ccc(OC(F)(F)F)cc23)cc1	broth dilution / resazurin	H37Rv	EC50				6.683 µg/mL
O=C(Oc1ccc(Cl)cc1C(=O)Nc1ccc(Cl)c(Cl)c1)c1ccccc1	broth dilution	9449/2006	MIC		14 d		0.5 µM
O=[N+]([O-])c1cn2c(n1)OC[C@@H](OCc1ccc(OC(F)(F)F)cc1)C2		UT18	MIC				0.024 µg/mL
O=c1nc(N2CC(=NOCc3ccccc3)C2)sc2c([N+](=O)[O-])cc(C(F)(F)F)cc12	resazurin	16892 clinical isolate	MIC90				0.016 µg/mL
O=C1C=C(Nc2ccc(O)cc2)c2ccccc2C1=O	resazurin	H37Rv	inhibition			6.25 µg/mL	59%
COc1cccc(CS/C(N)=N/N=C/c2cc(Cl)ccc2O)c1	broth dilution	H37Rv	MIC		21 d		32 µM
Cc1ccc(C)c(N2C(=O)C(=O)C(c3nc4ccccc4s3)/C(=N/NC(=O)NN)C2=O)c1	resazurin	H37Rv	MIC bound				>6.25 µg/mL
O=C(Oc1ccc(Br)cc1C(=O)Nc1ccc(C(F)(F)F)cc1)c1ccccc1	broth dilution	9449/2006	MIC		14 d		1 µM
CNC(=S)N=Nc1c(O)n(CN2CCOCC2)c2ccc(OC(F)(F)F)cc12	broth dilution / resazurin	H37Rv	EC50				1.566 µg/mL
NC(=O)/C(=C\c1ccc(Cl)cc1)n1nc2ccccc2n1		H37Rv	EC50				>12.5 µg/mL
O=C(Nc1cccc(F)c1)c1cc(Cl)ccc1O	broth dilution	331/88 (H37Rv)	MIC		14 d		8 µM
CN1C(=O)N(c2cc(Cl)cc(Cl)c2)C(=N)C1=S	BACTEC	H37Rv	inhibition			12.5 µg/mL	9%
O=C(O)c1c2n(c3cc(N4CCSCC4)c(F)cc3c1=O)CS2	agar	H37Rv	MIC				4.43 µM
O=[N+]([O-])c1cc2[nH]cnc2c([N+](=O)[O-])c1NCc1ccccc1	resazurin	H37Rv	MIC bound				>6.25 µg/mL
N/C(=N\N=C\c1cc(Cl)ccc1O)SCc1ccc(F)cc1	broth dilution	H37Rv	MIC		14 d		16 µM
COc1ccccc1N1CCN(CN2C(=O)/C(=N\c3ncc(Cc4cc(OC)c(OC)c(OC)c4)c(N)n3)c3cc(Br)ccc32)CC1	BACTEC		inhibition			6.25 µg/mL	40%
O=C(N/N=C/c1ccc([N+](=O)[O-])cc1)c1cccnc1			MIC				1–100 µg/mL
COc1cc(Cc2cnc(/N=C3\C(=O)N(CN4CCN(C)CC4)c4ccc(Br)cc43)nc2N)cc(OC)c1OC	BACTEC		inhibition			6.25 µg/mL	38%
Oc1c(N=NC(=S)Nc2ccc(Cl)cc2)c2cc(OC(F)(F)F)ccc2n1CN1CCOCC1	broth dilution / resazurin	H37Rv	EC90				3.041 µg/mL
CCCCNC(=O)NC1CC(OC2CC(O)(C(C)=O)Cc3c(O)c4c(c(O)c32)C(=O)c2c(OC)cccc2C4=O)OC(C)C1O	BACTEC	H37Rv	inhibition			12.5 µg/mL	-8%
O=C(NCc1ccc(N2CCN(Cc3ccccc3)CC2)nc1)c1ccc([N+](=O)[O-])o1		UT30	MIC				0.012 µg/mL
CON=C1CCN(c2nc(=O)c3cc(C(F)(F)F)cc([N+](=O)[O-])c3s2)CC1	resazurin	16802 clinical isolate	MIC90				0.016 µg/mL
Cc1cc(C)c2c(=O)n(CC(O)CN3CCCCC3)sc2n1		H37Rv	inhibition			12.5 µg/mL	0%
O=[N+]([O-])c1nccn1[C@@H]1O[C@H](CO)[C@@H](O)[C@H]1O	resazurin	H37Rv	MIC bound				>6.25 µg/mL
COc1cc(Cc2cnc(/N=C3\C(=O)N(CN4CCOCC4)c4ccc(Br)cc43)nc2N)cc(OC)c1OC	BACTEC		inhibition			6.25 µg/mL	94%
[O-]c1ccccc1N=Nc1ccccc1[O-].[O]=[V+2]	BACTEC	H37Rv	inhibition			128 µg/mL	100%
Cc1ccc(CS/C(N)=N/N=C/c2ccccc2)cc1	broth dilution	H37Rv	MIC		14 d		32 µM
O=C(N/N=C/c1cc(Cl)cc(Cl)c1O)c1ccncc1			MIC				0.1 µg/mL
N#C/C(=C\c1ccc2c(c1)OCO2)n1nnc2ccccc21		H37Rv	EC50				>12.5 µg/mL
CCc1c(NCCO)c(C(=O)NCCO)c2nc3ccccc3n2c1NCCO	BACTEC	H37Rv	MIC bound				>12.5 µg/mL
O=C(N/N=C/c1ccccc1[N+](=O)[O-])c1ccncc1			MIC				0.1 µg/mL
O=C(Oc1cc(Cl)ccc1C(=O)Nc1cccc(Br)c1)c1ccccc1	broth dilution	331/88 (H37Rv)	MIC		14 d		4 µM
CN(C)NP(=O)(NN(C)C)c1ccccc1	BACTEC	H37Rv	MIC bound				>6.25 µg/mL
Cc1ccc(S(=O)(=O)OCCn2sc3nc(C)cc(C)c3c2=O)cc1		H37Rv	inhibition			12.5 µg/mL	0%
CN1CCN(c2cc3c(cc2[N+](=O)[O-])c(=O)c(C(=O)O)c2n3CS2)CC1c1ccccc1	agar	H37Rv	MIC				3.45 µM
N#C/C(=C\c1ccc(-c2ccccc2)cc1)n1nnc2ccccc21		H37Rv	EC50				>12.5 µg/mL
N/C(=N\N=C\c1cc(Cl)ccc1O)SCc1ccc(Cl)cc1	broth dilution	H37Rv	MIC		21 d		16 µM
C=CCNc1c(C)c2c3c4c1C(=O)C(=C(/C=N/N1CCN(C)CC1)C4O)NC(=O)/C(C)=C\C=C\[C@H](C)[C@H](O)[C@@H](C)[C@@H](O)[C@@H](C)[C@H](OC(C)=O)[C@H](C)[C@@H](OC)/C=C/O[C@@](C)(O2)C3=O	low oxygen		MIC90				>18.6 µM
CCCCNC(=O)CN1C(C(C)=O)=C(O)c2c(C)cc(C)nc2S1(=O)=O		H37Rv	inhibition			12.5 µg/mL	29%
OC[C@@H](O)[C@H]1NC[C@H](O)[C@@H]1O	resazurin	H37Rv	MIC bound				>6.25 µg/mL
CNc1c(C)c2c3c4c1C(=O)C(=C(/C=N/N1CCN(C)CC1)C4O)NC(=O)/C(C)=C\C=C\[C@H](C)[C@H](O)[C@@H](C)[C@@H](O)[C@@H](C)[C@H](OC(C)=O)[C@H](C)[C@@H](OC)/C=C/O[C@@](C)(O2)C3=O	resazurin		MIC90				4 µM
CO[C@H]1/C=C/O[C@@]2(C)Oc3c(C)c(O)c4c(O)c(c(/C=N/N5CCN(C)CC5)c(O)c4c3C2=O)NC(=O)/C(C)=C\C=C\[C@H](C)[C@H](O)[C@@H](C)[C@@H](O)[C@@H](C)[C@H](OC(C)=O)[C@@H]1C		H37Rv	MIC				0.1 µg/mL
[Na+].[O-]N=Nc1nc(-c2ccccn2)nc2ccccc12	BACTEC	H37Rv	inhibition			12.5 µg/mL	86%
CCON=C1CN(c2nc(=O)c3cc(C(F)(F)F)cc([N+](=O)[O-])c3s2)C1	resazurin	H37Rv	MIC90				<0.016 µg/mL
NC(=O)CS(=O)CC(N)C(=O)O	resazurin	H37Rv	MIC bound				>6.25 µg/mL
Cc1cc(C)c2c(=O)n(CC(O)CN3CCN(CCO)CC3)sc2n1		H37Rv	MIC				>12.5 µg/mL
Cc1ccc2c(c1)c(N=NC(=S)Nc1ccc(F)cc1)c(O)n2C	broth dilution / resazurin	H37Rv	EC90				>100 µg/mL
N/C(=N\N=C\c1ccccc1O)SCc1ccc(Cl)cc1	broth dilution	H37Rv	MIC		14 d		8 µM
COc1cc(/C=C(\C#N)n2nnc3ccccc32)cc(OC)c1OC		H37Rv	EC50				>12.5 µg/mL
Cc1ccc(S(=O)(=O)Oc2ccc3sc4c(CO)ccc(NCCN(C)C)c4c(=O)c3c2)cc1	BACTEC	H37Rv	MIC	VERO			3.13 µg/mL
Cc1ccc2c(c1)c(N=NC(=S)Nc1cccc(Br)c1)c(O)n2C	broth dilution / resazurin	H37Rv	EC50				5.495 µg/mL
NC(=O)/C(=C\c1ccccc1)n1nnc2ccccc21		H37Rv	inhibition			12.5 µg/mL	0%
C=CCN1C(=O)c2c(C)cc(C)nc2S1(=O)=O		H37Rv	MIC				>12.5 µg/mL

The first 4 rows once more:

SMILES	read by	strain or isolate	measure	cells	setting	tested at	value
N/C(=N\N=C\c1cc(Br)ccc1O)SCc1cccc(Cl)c1	broth dilution	H37Rv	MIC		21 d		32 µM
Cc1onc(-c2c(F)cccc2F)c1C(=O)N1CCN(c2cc3c(cc2F)c(=O)c(C(=O)O)c2n3CS2)CC1	agar	H37Rv	MIC				11.23 µM
O=C(Oc1ccc(Cl)cc1C(=O)Nc1ccc(C(F)(F)F)cc1)c1ccccc1	broth dilution	7357/1998	MIC		21 d		0.5 µM
CC(=O)C1=C(O)c2c(C)cc(C)nc2S(=O)(=O)N1		H37Rv	inhibition			12.5 µg/mL	33%